Data from patent publication US5891924A, “Curcumin (diferuloylmethane) inhibition of NFκB activation” (Research Development Foundation, priority 1996, dated 1999).

System: NF-κB
Assay: Effect of reducing agents DTT and DMP on inhibition of TNF-induced NF-κB activation, EMSA
Format: cell-based, human
Settings: DTT 100 μM or DMP 100 μM, curcumin 50 μM or PAO 2.4 μM, 60 minutes, then 0.1 nM TNF 30 minutes, FIG. 5

O=[As]c1ccccc1 (stereo not shown)
reversal by DTT and DMP of the inhibition of TNF-induced NF-κB activation: completely reversed
